Pooled drug test results. Numbers come from NIAID ChemDB, via PubChem.

Common to all: whole-cell or culture tests; agent: HIV-1; strain or isolate: IIIB; method: syncytia / visual reading; endpoint: EC50

Neighbouring rows are from separate reports. ECn is the concentration giving n% inhibition of infection, replication or growth.

SMILES | cell line | result
CCCCCCCCCCCCCCCCCC(=O)Oc1ccc(OP(=O)(OCc2ccc(OC(=O)CCCC)cc2)OP(=O)(O)OP(=O)(O)OC[C@@H]2C=C[C@H](n3cc(C)c(=O)[nH]c3=O)O2)cc1 | CEM | 0.12 µM
C/C(=N\NC(=O)c1ccccc1)c1cn(S(=O)(=O)c2ccc(C)cc2)c2ccc(C#N)cc12 | C8166 | 59.99 µg/mL
CCCCCCCCC(=O)O[C@@]12[C@H](OC(=O)/C=C/c3ccc4c(c3)OCO4)[C@@H](C)[C@@]3(O)[C@@H](C=C(CO)C[C@]4(O)C(=O)C(C)=C[C@@H]34)[C@@H]1C2(C)C | C8166 | 0.0262 µM
CCC(=O)c1cn(S(=O)(=O)c2ccc(C)cc2)c2ccc(C#N)cc12 | C8166 | >200 µg/mL
CCCCCCCCCCCCCCC(=O)Oc1ccc(COP(=O)(Oc2ccc(OC(=O)CCC(=O)OCCOCCOCCOC)cc2)OP(=O)(O)OP(=O)(O)OC[C@@H]2C=C[C@H](n3cc(C)c(=O)[nH]c3=O)O2)cc1 | CEM | 0.26 µM
CC/C=C\C/C=C\C/C=C\C/C=C\C/C=C\C/C=C\CCC(=O)O[C@@H]1[C@@H](C)[C@@]2(O)[C@@H](C=C(CO)C[C@]3(O)C(=O)C(C)=C[C@@H]23)[C@@H]2C(C)(C)[C@]12OC(C)=O | C8166 | 0.9431 µM
O=C(N/N=C/c1cn(S(=O)(=O)c2cccc([N+](=O)[O-])c2)c2ccccc12)c1ccccc1 | C8166 | 4.06 µg/mL
Nc1ccn([C@@H]2CS[C@H](CO)O2)c(=O)n1 | C8166 | 0.1758 µM
CCC(=O)c1cn(S(=O)(=O)c2ccc(Cl)cc2)c2ccccc12 | C8166 | 73 µg/mL
CC/C=C\C/C=C\C/C=C\C/C=C\C/C=C\CCCC(=O)O[C@@H]1[C@@H](C)[C@@]2(O)[C@@H](C=C(CO)C[C@]3(O)C(=O)C(C)=C[C@@H]23)[C@@H]2C(C)(C)[C@]12OC(C)=O | C8166 | 0.0606 µM
CCCCCCCCCCCCCCC(=O)Oc1ccc(OP(=O)(OCc2ccc(OC(=O)CCCC)cc2)OP(=O)(O)OP(=O)(O)OC[C@@H]2C=C[C@H](n3cc(C)c(=O)[nH]c3=O)O2)cc1 | CEM | 0.14 µM
COc1ccc(S(=O)(=O)n2cc(/C(C)=N/NC(=O)c3ccccc3)c3ccc(C)cc32)cc1 | C8166 | 12.37 µg/mL
Cc1cn([C@H]2C[C@H](N=[N+]=[N-])[C@@H](CO)O2)c(=O)[nH]c1=O | C8166 | 0.00324 µg/mL
CC(=O)Nc1ccc(S(=O)(=O)n2cc(/C=N/NC(=O)c3ccccc3)c3ccccc32)cc1 | C8166 | 1.71 µg/mL
CCC(=O)c1cn(S(=O)(=O)c2ccc(OC)cc2)c2ccccc12 | C8166 | 0.8 µg/mL
C/C(=N\NC(=O)c1ccccc1)c1cn(S(=O)(=O)c2ccccc2)c2ccccc12 | C8166 | 0.52 µg/mL
O=c1[nH]c(=S)ccn1[C@@H]1O[C@H](COP(=O)(O)O)[C@@H](O)[C@H]1O | H9 | 7.5 µM
C/C(=N\NC(=O)c1ccccc1)c1cn(S(=O)(=O)c2ccccc2)c2ccc([N+](=O)[O-])cc12 | C8166 | 0.5 µg/mL
CCCCCCCCC(=O)O[C@@]12[C@H](OC(=O)/C=C/c3ccc(Br)cc3)[C@@H](C)[C@@]3(O)[C@@H](C=C(CO)C[C@]4(O)C(=O)C(C)=C[C@@H]34)[C@@H]1C2(C)C | C8166 | 0.0096 µM

The first 2 rows once more:

SMILES | cell line | result
CCCCCCCCCCCCCCCCCC(=O)Oc1ccc(OP(=O)(OCc2ccc(OC(=O)CCCC)cc2)OP(=O)(O)OP(=O)(O)OC[C@@H]2C=C[C@H](n3cc(C)c(=O)[nH]c3=O)O2)cc1 | CEM | 0.12 µM
C/C(=N\NC(=O)c1ccccc1)c1cn(S(=O)(=O)c2ccc(C)cc2)c2ccc(C#N)cc12 | C8166 | 59.99 µg/mL